Reference: a compilation of properties of binary mixtures (doi:10.1016/j.fluid.2021.113137)

Test: xn = mol fraction of the nth substance listed
Conditions: 100 kPa

CC[n+]1ccn(C)c1.O=S(=O)(F)[N-]S(=O)(=O)F + O
Conditions	electrical conductivity [S/m]	mass density [kg/m3]	viscosity [mPa·s]
288.15 K, x1 = 0.7211	1.94	–	–
288.15 K, x1 = 0.771	1.79	–	–
288.15 K, x1 = 0.7797	–	1437.8	16.98
288.15 K, x1 = 0.8143	–	1440.2	18.13
288.15 K, x1 = 0.8663	1.54	–	–
288.15 K, x1 = 0.8796	–	1444.6	20.68
288.15 K, x1 = 0.9111	–	1446.5	22.02
288.15 K, x1 = 0.9349	1.39	–	–
288.15 K, x1 = 0.9433	–	1448.3	23.46
288.15 K, x1 = 0.9693	–	1449.7	24.73
288.15 K, x1 = 0.9748	1.3	–	–
293.15 K, x1 = 0.771	2.05	–	–
293.15 K, x1 = 0.7797	–	1433.2	14.66
293.15 K, x1 = 0.8143	–	1435.7	15.68
293.15 K, x1 = 0.8207	1.92	–	–
293.15 K, x1 = 0.8466	–	1437.9	16.7
293.15 K, x1 = 0.8663	1.78	–	–
293.15 K, x1 = 0.8796	–	1440	17.78
293.15 K, x1 = 0.8994	1.7	–	–
293.15 K, x1 = 0.9111	–	1442.1	18.92
293.15 K, x1 = 0.9349	1.6	–	–
293.15 K, x1 = 0.9433	–	1443.9	20.1
293.15 K, x1 = 0.9693	–	1445.3	21.13
298.15 K, x1 = 0.7211	2.5	–	–
298.15 K, x1 = 0.771	2.32	–	–
298.15 K, x1 = 0.7797	–	1428.6	12.82
298.15 K, x1 = 0.8143	–	1430.8	13.69
298.15 K, x1 = 0.8796	–	1435.4	15.47
298.15 K, x1 = 0.8994	1.93	–	–
298.15 K, x1 = 0.9349	1.83	–	–
298.15 K, x1 = 0.9433	–	1439.2	17.4
298.15 K, x1 = 0.9693	–	1440.6	18.26
298.15 K, x1 = 0.9748	1.73	–	–
303.15 K, x1 = 0.7211	2.81	–	–
303.15 K, x1 = 0.7797	–	1423.7	11.3
303.15 K, x1 = 0.8143	–	1426.3	12.02
303.15 K, x1 = 0.8207	2.46	–	–
303.15 K, x1 = 0.8663	2.29	–	–
303.15 K, x1 = 0.8796	–	1430.7	13.57
303.15 K, x1 = 0.9349	2.08	–	–
303.15 K, x1 = 0.9433	–	1434.4	15.21
303.15 K, x1 = 0.9693	–	1436	15.93
303.15 K, x1 = 0.9748	1.97	–	–
308.15 K, x1 = 0.8143	–	1421.7	10.7
308.15 K, x1 = 0.8207	2.75	–	–
308.15 K, x1 = 0.8466	–	1423.9	11.35
308.15 K, x1 = 0.8796	–	1426	12
308.15 K, x1 = 0.8994	2.45	–	–
308.15 K, x1 = 0.9111	–	1428.1	12.69
308.15 K, x1 = 0.9349	2.34	–	–
308.15 K, x1 = 0.9433	–	1430	13.4
308.15 K, x1 = 0.9693	–	1431.4	14.01
308.15 K, x1 = 0.9748	2.23	–	–
313.15 K, x1 = 0.7211	3.44	–	–
313.15 K, x1 = 0.771	3.22	–	–
313.15 K, x1 = 0.8143	–	1417.1	9.56
313.15 K, x1 = 0.8663	2.85	–	–
313.15 K, x1 = 0.8796	–	1421.5	10.69
313.15 K, x1 = 0.8994	2.74	–	–
313.15 K, x1 = 0.9111	–	1423.6	11.29
313.15 K, x1 = 0.9349	2.62	–	–
313.15 K, x1 = 0.9433	–	1425.4	11.9
313.15 K, x1 = 0.9693	–	1426.6	12.42
313.15 K, x1 = 0.9748	2.48	–	–
318.15 K, x1 = 0.7211	3.79	–	–
318.15 K, x1 = 0.771	3.54	–	–
318.15 K, x1 = 0.7797	–	1409.9	8.1
318.15 K, x1 = 0.8143	–	1412.5	8.6
318.15 K, x1 = 0.8466	–	1414.6	9.11
318.15 K, x1 = 0.8663	3.15	–	–
318.15 K, x1 = 0.8796	–	1417	9.59
318.15 K, x1 = 0.8994	3.03	–	–
318.15 K, x1 = 0.9111	–	1418.9	10.11
318.15 K, x1 = 0.9349	2.9	–	–
318.15 K, x1 = 0.9433	–	1420.9	10.64
318.15 K, x1 = 0.9748	2.77	–	–
323.15 K, x1 = 0.7211	4.14	–	–
323.15 K, x1 = 0.771	3.88	–	–
323.15 K, x1 = 0.7797	–	1405.2	7.34
323.15 K, x1 = 0.8143	–	1407.9	7.78
323.15 K, x1 = 0.8207	3.7	–	–
323.15 K, x1 = 0.8466	–	1410.2	8.23
323.15 K, x1 = 0.8663	3.45	–	–
323.15 K, x1 = 0.9349	3.2	–	–
323.15 K, x1 = 0.9433	–	1416.2	9.57
323.15 K, x1 = 0.9693	–	1417.6	9.96
323.15 K, x1 = 0.9748	3.05	–	–
328.15 K, x1 = 0.7211	4.5	–	–
328.15 K, x1 = 0.771	4.23	–	–
328.15 K, x1 = 0.7797	–	1400.6	6.68
328.15 K, x1 = 0.8143	–	1403.4	7.07
328.15 K, x1 = 0.8207	4.03	–	–
328.15 K, x1 = 0.8466	–	1405.6	7.48
328.15 K, x1 = 0.8663	3.79	–	–
328.15 K, x1 = 0.8796	–	1407.9	7.74
328.15 K, x1 = 0.8994	3.66	–	–
328.15 K, x1 = 0.9111	–	1410	8.25
328.15 K, x1 = 0.9433	–	1411.9	8.65
328.15 K, x1 = 0.9693	–	1413.3	9
328.15 K, x1 = 0.9748	3.36	–	–
333.15 K, x1 = 0.771	4.6	–	–
333.15 K, x1 = 0.7797	–	1396.2	6.11
333.15 K, x1 = 0.8143	–	1398.9	6.46
333.15 K, x1 = 0.8207	4.38	–	–
333.15 K, x1 = 0.8466	–	1401.1	6.83
333.15 K, x1 = 0.8994	3.99	–	–
333.15 K, x1 = 0.9349	3.84	–	–
333.15 K, x1 = 0.9433	–	1407.4	7.86
333.15 K, x1 = 0.9693	–	1408.9	8.17
